This passage reports SI results from patent publication US12012411B2, “Viral replication inhibitors” (Katholieke Universiteit Leuven, priority 2011, dated 2024).

Where only a bound is given, the exact number is not on record here.

This data set relates to DENV-2 NGC. Description: Antiviral activity against DENV-2 NGC in Vero-B cells (viral RNA load by RT-qPCR). The conditions noted are these: DENV-2 in Vero-B cells (Table 3); ratio CC50 / EC50. In kind it is cell-based, Dengue virus.
As to `COc1cccc(NC(C(=O)c2c[nH]c3ccccc23)c2cnc(OC)cn2)c1` (stereo not shown) [CPD-249], the SI is 553.

Turning to `CCOc1ccc(C(Nc2cccc(OC)c2)C(=O)c2c[nH]c3ccccc23)cn1` (stereo not shown) [CPD-250], the SI is listed as 65.

Turning to `COc1cccc(NC(C(=O)c2c[nH]c3cccc(C)c23)c2ccccc2)c1` (stereo not shown) [CPD-251], the SI came to 195.

As to `COc1cncc(NC(C(=O)c2c[nH]c3ccccc23)c2ccccc2)n1` (stereo not shown) [CPD-252], the SI is 140.

As to `CCOc1cc(NC(C(=O)c2c[nH]c3ccccc23)c2ccccc2)cc(OC)c1` (stereo not shown) [CPD-254], the SI came to 743.

As to `COc1cc(NC(C(=O)c2c[nH]c3ccccc23)c2ccccc2)cnc1OC` (stereo not shown) [CPD-256], the SI turned out to be 433.

Consider `COc1cc(NC(C(=O)c2c[nH]c3ccccc23)c2ccccc2)cnc1N(C)C` (stereo not shown) [CPD-257], for which the SI is 37.

As for `CCOc1ncc(NC(C(=O)c2c[nH]c3ccccc23)c2ccccc2)cc1OC` (stereo not shown) [CPD-258], the SI was found to be 49.

Regarding `COc1cncc(NC(C(=O)c2nn(C)c3ccccc23)c2ccccc2)c1` (stereo not shown) [CPD-259], the SI is recorded as 26.

`COc1cccc(NC(C(=O)c2nn(C)c3ccccc23)c2ccc(C#N)cc2)c1` (stereo not shown) [CPD-260]: the SI is recorded as greater than 1681.

For the compound `CNc1ncc(NC(C(=O)c2c[nH]c3ccccc23)c2ccccc2)cc1OC` (stereo not shown) [CPD-261], the SI was 40.

With `COc1cc(CO)cc(NC(C(=O)c2c[nH]c3ccccc23)c2ccccc2)c1` (stereo not shown) [CPD-262], the SI came to 1099.

With `COc1cc(CN(C)C)cc(NC(C(=O)c2c[nH]c3ccccc23)c2ccccc2)c1` (stereo not shown) [CPD-263], the SI amounted to 6.

For `COc1cccc(NC(C(=O)c2nn(C)c3ccccc23)c2ccc(OC)nc2)c1` (stereo not shown) [CPD-264], the SI is greater than 244.

As to `COc1cc(NC(C(=O)c2nn(C)c3ccccc23)c2ccccc2)cc(OC)c1` (stereo not shown) [CPD-265], the SI was greater than 5616.

`COc1cccc(NC(C(=O)c2nn(C)c3cc(OC)ccc23)c2ccccc2)c1` (stereo not shown) [CPD-266]: the SI was greater than 2222.

In the case of `COc1cccc(NC(C(=O)c2c[nH]c3ccccc23)c2cc(C)n(C)n2)c1` (stereo not shown) [CPD-267], the SI is listed as 61.

For the compound `COc1cccc(NC(C(=O)c2c[nH]c3ccccc23)c2ccc(OC(C)C)nc2)c1` (stereo not shown) [CPD-268], the SI is 34.

`O=C(c1c[nH]c2ccccc12)C(Nc1cncc(OC(F)F)c1)c1ccccc1` (stereo not shown) [CPD-269]: the SI was determined as 28.

Consider `COc1cccc(NC(C(=O)c2nn(C)c3ccc(F)cc23)c2ccccc2)c1` (stereo not shown) [CPD-270], for which the SI is reported as greater than 1001.

On to `COc1cccc(NC(C(=O)c2nn(C)c3ccccc23)c2cnc(OC)cn2)c1` (stereo not shown) [CPD-272], for which the SI is greater than 263.

As for `COc1cccc(NC(C(=O)c2nn(C)c3ccccc23)c2cc3ccccn3n2)c1` (stereo not shown) [CPD-273], the SI is greater than 382.

As to `COc1cccc(NC(C(=O)c2c[nH]c3ccccc23)c2cnccn2)c1` (stereo not shown) [CPD-274], the SI stood at 257.

As to `COc1cccc(NC(C(=O)c2nn(C)c3ccc(C#N)cc23)c2ccccc2)c1` (stereo not shown) [CPD-275], the SI is reported as greater than 13.

For the compound `COc1cncc(NC(C(=O)c2nn(C)c3ccccc23)c2ccccc2)n1` (stereo not shown) [CPD-276], the SI was found to be 9.

Regarding `COc1cccc(NC(C(=O)c2c[nH]c3ccccc23)c2ccccc2)n1` (stereo not shown) [CPD-277], the SI was determined as 54.

With `COc1cc(CO)cc(NC(C(=O)c2nn(C)c3ccccc23)c2ccccc2)c1` (stereo not shown) [CPD-278], the SI is given as greater than 455.

`COc1cc(NC(C(=O)c2nn(C)c3ccccc23)c2cccnc2)cc(OC)c1` (stereo not shown) [CPD-279]: the SI is given as greater than 682.

For the compound `COc1cncc(NC(C(=O)c2c[nH]c3ccccc23)c2cccnc2)n1` (stereo not shown) [CPD-280], the SI is greater than 179.

As to `COc1cccc(NC(C(=O)c2nn(C)c3cc(F)ccc23)c2ccccc2)c1` (stereo not shown) [CPD-281], the SI is greater than 612.

Regarding `COc1cc(CO)cc(NC(C(=O)c2c[nH]c3ccccc23)c2cccnc2)c1` (stereo not shown) [CPD-282], the SI was greater than 490.

For `COc1cc(CO)cc(NC(C(=O)c2c[nH]c3ccccc23)c2ccc(OC)nc2)c1` (stereo not shown) [CPD-283], the SI was determined as 323.

As to `COc1ccc(C(Nc2cncc(OC)n2)C(=O)c2c[nH]c3ccccc23)cn1` (stereo not shown) [CPD-284], the SI turned out to be 120.

Turning to `COc1cc(CO)cc(NC(C(=O)c2c[nH]c3cc(F)ccc23)c2ccccc2)c1` (stereo not shown) [CPD-285], the SI is listed as 1327.

For `COc1cccc(NC(C(=O)c2nn(C)c3cc(C#N)ccc23)c2ccccc2)c1` (stereo not shown) [CPD-286], the SI is greater than 120.

For `COc1cncc(NC(C(=O)c2c[nH]c3cc(F)ccc23)c2ccccc2)n1` (stereo not shown) [CPD-287], the SI is greater than 303.

For the compound `COc1cc(CO)cc(NC(C(=O)c2c[nH]c3ccccc23)c2cnc(OC)cn2)c1` (stereo not shown) [CPD-288], the SI came out at 620.

`COc1cc(CO)cc(NC(C(=O)c2c[nH]c3ccccc23)c2cc3ccccn3n2)c1` (stereo not shown) [CPD-289]: the SI was 1150.

Consider `COc1cncc(NC(C(=O)c2c[nH]c3ccccc23)c2cc3ccccn3n2)n1` (stereo not shown) [CPD-290], for which the SI is greater than 142.

As for `COc1cc(NC(C(=O)c2c[nH]c3ccccc23)c2ccc(OC)nc2)cc(OCCO)c1` (stereo not shown) [CPD-291], the SI was determined as 872.

On to `COc1cc(NC(C(=O)c2c[nH]c3ccccc23)c2cnc(OC)cn2)cc(OCCO)c1` (stereo not shown) [CPD-292], for which the SI amounted to 1043.

In the case of `COc1cccc(NC(C(=O)c2c[nH]c3ccc(F)cc23)c2cnc(OC)cn2)c1` (stereo not shown) [CPD-295], the SI is on record as 679.

For the compound `COc1cc(CO)cc(NC(C(=O)c2c[nH]c3ccc(F)cc23)c2ccccc2)c1` (stereo not shown) [CPD-296], the SI is recorded as 605.

Take `COc1cccc(NC(C(=O)c2c[nH]c3cc(F)ccc23)c2cnc(OC)cn2)c1` (stereo not shown) [CPD-297]: the SI was found to be 668.

`COc1cc(NC(C(=O)c2nn(C)c3ccccc23)c2ccccc2)cc(OCCO)c1` (stereo not shown) [CPD-298]: the SI is greater than 278.

`COc1cccc(NC(C(=O)c2c[nH]c3ccccc23)c2ccccn2)c1` (stereo not shown) [CPD-301]: the SI came out at 1097.

On to `COc1cccc(NC(C(=O)c2cccc3[nH]ccc23)c2ccccc2)c1` (stereo not shown) [CPD-302], for which the SI is 23.

For the compound `COc1cccc(NC(C(=O)c2nn(CCO)c3ccccc23)c2ccccc2)c1` (stereo not shown) [CPD-303], the SI is 135.

Consider `COc1cc(NC(C(=O)c2cn(C)c3ccccc23)c2ccccc2)cc(OCCO)c1` (stereo not shown) [CPD-305], for which the SI is recorded as greater than 1263.

`COc1cc(CO)cc(NC(C(=O)c2cn(C)c3ccccc23)c2ccccc2)c1` (stereo not shown) [CPD-307]: the SI is listed as greater than 702.

Turning to `COc1cccc(NC(C(=O)c2c[nH]c3ccccc23)c2cncc(C)c2)c1` (stereo not shown) [CPD-309], the SI turned out to be 138.

As for `COc1ccc(C(Nc2cccc(OC)c2)C(=O)c2c[nH]c3ccccc23)nc1` (stereo not shown) [CPD-310], the SI is on record as 454.

As for `COc1cccc(NC(C(=O)c2c[nH]c3ccccc23)c2cc3n(n2)CCOC3)c1` (stereo not shown) [CPD-311], the SI is recorded as 30.

Turning to `COc1cccc(NC(C(=O)c2c[nH]c3ccccc23)c2cncc(OC)c2)c1` (stereo not shown) [CPD-312], the SI was found to be 15.

On to `COc1cc(CO)cc(NC(C(=O)c2c[nH]c3ccccc23)c2ccc(F)cc2)c1` (stereo not shown) [CPD-313], for which the SI is recorded as 1464.

For the compound `COc1cccc(NC(C(=O)c2c[nH]c3ccccc23)c2ccc(C#N)nc2)c1` (stereo not shown) [CPD-314], the SI is 240.

For `COc1cccc(NC(C(=O)c2c[nH]c3ccccc23)c2ccc(C(F)(F)F)nc2)c1` (stereo not shown) [CPD-315], the SI was 265.

`COc1cc(NC(C(=O)c2c[nH]c3cc(F)ccc23)c2ccccc2)cc(OCCO)c1` (stereo not shown) [CPD-316]: the SI came out at 1180.

With `COc1cccc(NC(C(=O)c2c[nH]c3ccccc23)c2cccnn2)c1` (stereo not shown) [CPD-317], the SI came to 153.

For `COc1cc(CO)cc(NC(C(=O)c2c[nH]c3c(C)cccc23)c2ccccc2)c1` (stereo not shown) [CPD-318], the SI was 967.

As to `COc1cc(NC(C(=O)c2c[nH]c3ccccc23)c2ccccc2)cc(OC)n1` (stereo not shown) [CPD-319], the SI was 172.

In the case of `COc1cccc(NC(C(=O)c2c[nH]c3ccccc23)c2cncc(F)c2)c1` (stereo not shown) [CPD-321], the SI is 310.

Regarding `COc1cccc(NC(C(=O)c2c[nH]c3c(C)cccc23)c2cc3ccccn3n2)c1` (stereo not shown) [CPD-329], the SI is 2980.

Take `COc1cccc(NC(C(=O)c2noc3ccccc23)c2ccccc2)c1` (stereo not shown) [CPD-330]: the SI is on record as greater than 30.

In the case of `COc1cc(NC(C(=O)c2c[nH]c3c(C)cccc23)c2ccccc2)cc(OCCO)c1` (stereo not shown) [CPD-331], the SI is 736.

Turning to `COc1cccc(NC(C(=O)c2c[nH]c3c(C)cccc23)c2ccc(OC)nc2)c1` (stereo not shown) [CPD-332], the SI stood at 527.

Take `COc1cc(CO)cc(NC(C(=O)c2c[nH]c3ccccc23)c2ccc(F)nc2)c1` (stereo not shown) [CPD-333]: the SI was found to be 2078.

Take `COc1cc(NC(C(=O)c2c[nH]c3ccccc23)c2ccc(OC)nc2)cc(OC)c1` (stereo not shown) [CPD-335]: the SI came to 909.

With `COc1cc(NC(C(=O)c2c[nH]c3c(C)cccc23)c2ccccc2)cc(OC)c1` (stereo not shown) [CPD-337], the SI is 3237.

As to `COc1cc(NC(C(=O)c2c[nH]c3c(CCO)cccc23)c2ccccc2)cc(OC)c1` (stereo not shown) [CPD-339], the SI is 205.

On to `COc1cc(NC(C(=O)c2c[nH]c3c(C)cccc23)c2ccc(F)cc2)cc(OC)c1` (stereo not shown) [CPD-341], for which the SI is given as 6121.

Consider `COc1cc(NC(C(=O)c2c[nH]c3ccccc23)c2cccnc2)cc(OCCO)c1` (stereo not shown) [CPD-343], for which the SI is greater than 637.

With `COc1cc(CO)cc(NC(C(=O)c2c[nH]c3cc(F)ccc23)c2cccnc2)c1` (stereo not shown) [CPD-344], the SI worked out at 1054.

As to `COc1cc(NC(C(=O)c2c[nH]c3ccccc23)c2ccccc2)c(F)c(OC)c1` (stereo not shown) [CPD-345], the SI came to 493.

As for `COc1cc(OC)nc(NC(C(=O)c2c[nH]c3ccccc23)c2ccccc2)n1` (stereo not shown) [CPD-347], the SI was found to be 6.

Take `COc1cccc(NC(C(=O)c2c[nH]c3ccccc23)c2ccccc2C)c1` (stereo not shown) [CPD-348]: the SI is listed as 151.

As for `COc1cc(NC(C(=O)c2c[nH]c3ccc(CO)cc23)c2ccccc2)cc(OC)c1` (stereo not shown) [CPD-351], the SI was determined as 605.

Regarding `COc1cc(NC(C(=O)c2c[nH]c3cccc(CO)c23)c2ccccc2)cc(OC)c1` (stereo not shown) [CPD-352], the SI was found to be 247.

Regarding `COc1cc(NC(C(=O)c2c[nH]c3ccc(CCCO)cc23)c2ccccc2)cc(OC)c1` (stereo not shown) [CPD-353], the SI amounted to 582.
